Results of unrelated studies side by side (data: NIAID ChemDB).

a–b is a range or a potency band. MIC50, MIC90 and the like: level of inhibition, or share of isolates inhibited. Conditions beyond the fields shown may differ between rows. Percent inhibition refers to the dose given; in toxicity tests it is the harm to the cells. CCn is the concentration with n% toxicity to the cells. ECn is the concentration giving n% inhibition of infection, replication or growth. Blank or dashed fields: not listed here. ICn is the concentration giving n% inhibition.

structure	protein	test	dose	organism	read by	strain or isolate	measure	cell line	result
CCOC(=O)c1c(C)nc(OCCCNc2ccnc3cc(Cl)ccc23)nc1-c1ccccc1		culture		Cryptococcus gattii		1913 ER	MIC99		8 µg/mL
Clc1cccc(-c2cncc(N3CCN(c4ccncc4)CC3)n2)c1	UL97 kinase	target		Cytomegalovirus			IC50		<1 µM
C=CCCC(=O)NC[C@H](O)c1ccc2c(c1)OCO2		toxicity					CC50	HEK 293	<7.5 µM
CC(C)c1ccc(NC(=O)N(C)CCc2ccc3c(n2)NCCC3)cc1		toxicity					CC50	PBMC	50 µM
CCCNCc1ccc(OCC(=O)OCC)cc1		toxicity					CC50	RAJI	>20 µM
Oc1ccccc1N=Cc1ccccc1		culture		Cryptococcus gattii		L24/01	MIC99		5.7 µg/mL
COc1ccc(CCNC(=O)NCCc2ccc3c(n2)NCCC3)cc1		toxicity					CC50	PBMC	50 µM
CC(C)N(Cc1cccc(OCCCCCC(=O)OC(=O)O)c1)C(=O)c1ccc(-c2ccco2)cc1		toxicity					CC50	HEK 293	>20 µM
COc1cc(CCc2cccc3nc(N)nc(N)c23)cc(OC)c1OC	Dihydrofolate reductase	target		Cryptosporidium parvum		TYPE 1	IC50		>10 µM
COc1cccc(-c2ccc(C(=O)N(Cc3cccc(OCCCCCC(=O)OC(=O)O)c3)C(C)C)cc2)c1		toxicity					CC50	HEK 293	>20 µM
O=S(=O)([O-])c1ccc2c(O)cc(S(=O)(=O)[O-])cc2c1		culture	10 µg/mL	Adenovirus	cytopathic effect	TYPE 3	inhibition	Human embryonic lung cells	43%
O=c1cc(Nc2ccccc2)c2cccnc2n1O		toxicity					CC50	HeLa	<100 µM
CCCNc1ccccc1OCCCCC(=O)OCC		toxicity					CC50	BJ	>20 µM
Oc1ccc(O)c(C=Nc2ccccc2O)c1		culture		Cryptococcus gattii		1913 ER	MIC99		8 µg/mL
O=C(Cn1c(-c2nccs2)nc2ccccc21)Nc1ccc(Cl)cc1	IMPDH2	host protein		Human	fluorescence / absorbance		IC50		≥40 µM
COc1ccc(-c2cncc(N3CCN(c4ccccc4OC)CC3)n2)cc1OC	UL97 kinase	target	1 µM	Cytomegalovirus			inhibition		<50%
Oc1ccccc1N=Cc1ccc(O)c(O)c1O		culture		Cryptococcus neoformans		ATCC 62066	MIC99		5.7 µg/mL
COc1cc(NCc2ccc3nc(N)nc(N)c3c2Cl)c(Br)c(OC)c1OC	Dihydrofolate reductase	target		Cryptosporidium parvum		TYPE 2	IC50		>10 µM
Cc1ccc(N2CCN(c3cncc(-c4ccc(N(C)C)cc4)n3)CC2)cc1	UL97 kinase	target		Cytomegalovirus			IC50		<100 µM
COc1cc(N(C)Cc2csc3nc(N)nc(N)c23)cc(OC)c1OC	Dihydrofolate reductase	target		Cryptosporidium parvum		TYPE 2	IC50		>10 µM
O=[N+]([O-])c1cc([N+](=O)[O-])c2ccc(S(=O)(=O)O)cc2c1O		culture	5 µg/mL	Herpes simplex virus	cytopathic effect		inhibition	Human amnion AV3 cells	0%
Fc1ccc(N2CCCCC2)c(NC(=S)c2ccncc2)c1	CK2alpha2	host protein	10 µM		kinase activity		inhibition		-11%
O=C(NCCc1ccc2c(n1)NCCC2)NCCc1ccc2c(n1)NCCC2		toxicity					CC50	PBMC	8.8 µM
Nc1ccc2cc([N+](=O)[O-])cc(S(=O)(=O)[O-])c2c1		culture	10 µg/mL	Adenovirus	cytopathic effect	TYPE 3	inhibition	Human embryonic lung cells	45%
CCOC(=O)c1c(O)c2cc(C(C)=O)cnc2n(O)c1=O		toxicity					CC50	HeLa	<100 µM
O=C(Cn1c(-c2cscn2)nc2ccccc21)Nc1ccc(Cl)cc1	IMPDH2	host protein	5 µM	Human	fluorescence / absorbance		inhibition		≤20%
Nc1nc(N)c2c(ccc3ccc(Cl)cc32)n1	Dihydrofolate reductase	target		Cryptosporidium parvum		TYPE 1	IC50		0.023 µM
CCOC(=O)CCCCCOc1cccc(CN(C(=O)c2ccc(-c3cccc(OC(C)C)c3)cc2)C(C)C)c1		toxicity					CC50	RAJI	>20 µM
O=C(NCCc1ccc2c(n1)NCCC2)NCCc1cccs1		toxicity					CC50	PBMC	50 µM
Oc1ccccc1N=Cc1ccc2c(c1)OCO2		culture		Cryptococcus neoformans		28JF	MIC99		11.3 µg/mL
O=C(O)c1cc2nc(-c3cccc(Cl)c3)cc(-c3cccc(OCc4ccccc4)c3)n2n1	RNA-dependent RNA polymerase	target		Hepatitis C virus			IC50		1–10 µM
COc1cc(CC2CCc3nc(N)nc(N)c3C2)cc(OC)c1OC	Dihydrofolate reductase	target		Cryptosporidium parvum		TYPE 2	IC50		0.56 µM
COc1ccc(-c2cnc3c(-c4nn[nH]n4)cnn3c2C2CCCCC2)cc1	RNA-dependent RNA polymerase	target		Hepatitis C virus			IC50		1–10 µM
COc1cc(CCN2CCc3nc(N)nc(N)c3C2)cc(OC)c1OC	Dihydrofolate reductase	target		Cryptosporidium parvum		TYPE 2	IC50		>10 µM
CC(C)N(Cc1ccccc1)C(=O)c1ccc(-c2ccc3c(c2)OCO3)cc1		toxicity					CC50	RAJI	<13.5 µM
O=C(NCCc1ccc2c(n1)NCCC2)Nc1cc(F)ccc1F		toxicity					CC50	PBMC	50 µM
O=S(=O)([O-])c1ccc(O)cc1		culture	5 µg/mL	Rhinovirus	cytopathic effect		inhibition	Human embryonic lung cells	10%
Oc1ccccc1C=Nc1ccccc1O		culture		Cryptococcus neoformans		VM-MCMMPI	MIC99		5.7 µg/mL
Nc1ccc2c(O)cc(S(=O)(=O)[O-])cc2c1S(=O)(=O)[O-]		culture	50 µg/mL	Herpes simplex virus	cytopathic effect		inhibition	Human conjunctiva cells	0%
CCOC(=O)c1ccc2c(c1)CN(c1cc(=O)n(O)c3ncccc13)CC2		toxicity					CC50	HeLa	<100 µM
Cc1cc(C)cc(-c2cncc(N3CCN(c4ccncc4)CC3)n2)c1	UL97 kinase	target	1 µM	Cytomegalovirus			inhibition		<50%
Nc1nc(N)c2c(CNc3cc(Cl)c(-n4cccc4)c(Cl)c3)csc2n1	Dihydrofolate reductase	target		Cryptosporidium parvum		TYPE 1	IC50		>10 µM
O=C(O)c1cc2nc(-c3ccc(Cl)cc3)cc(-c3cccc(Cl)c3)n2n1	RNA-dependent RNA polymerase	target		Hepatitis C virus			IC50		>10 µM
O=c1c(-c2ccccc2)c(O)c2cc(Cc3ccccc3)cnc2n1O		toxicity					CC50	HeLa	<100 µM
CCC(CC)O[C@@H]1C=C(C(=O)O)C[C@H](N)[C@H]1NC(C)=O		culture		Influenza A virus	visual reading	H1N1 A/PR/8/34	EC50	MDCK	0.35 µM
COc1ccccc1N1CCN(c2cncc(-c3ccoc3)n2)CC1	UL97 kinase	target		Cytomegalovirus			IC50		<10 µM
O=C(O)c1cnn2c(C3CCCCC3)c(-c3cnc4ccccc4c3)cnc12	RNA-dependent RNA polymerase	target		Hepatitis C virus			IC50		>10 µM
S=C(NCCc1ccc2c(n1)NCCC2)NCc1ccc(Cl)c(Cl)c1		toxicity					CC50	PBMC	2.8 µM
Nc1ccc(S(=O)(=O)O)cc1		culture	10 µg/mL	Herpes simplex virus	cytopathic effect		inhibition	Human amnion AV3 cells	10%
O=C(Nc1nn[nH]n1)c1cc2nc(-c3ccc(OCc4ccccc4)cc3)c(C3CCCCC3)c(=O)n2[nH]1	RNA-dependent RNA polymerase	target		Hepatitis C virus			IC50		1–10 µM
CCOC(=O)COc1ccccc1CN(C(=O)c1ccc(-c2ccc3c(c2)OCO3)cc1)C(C)C		toxicity					CC50	RAJI	>20 µM
O=C(NCCc1ccc2c(n1)NCCC2)Nc1ccccc1Br		toxicity					CC50	PBMC	18.2 µM
O=C(Nc1cnn2c(C3CCCCC3)c(-c3ccc(OCc4ccccc4)cc3)cnc12)c1ccccc1	RNA-dependent RNA polymerase	target		Hepatitis C virus			IC50		>10 µM
O=C(NCCc1ccc2c(n1)NCCC2)Oc1ccc(Br)cc1		toxicity					CC50	PBMC	8.4 µM
O=C(Cn1c(-c2cscn2)nc2ccccc21)Nc1ccc(Br)cc1	IMPDH2	host protein	5 µM	Human	fluorescence / absorbance		inhibition		≤20%
CCOC(=O)/C=C/[C@H](C[C@@H]1CCNC1=O)NC(=O)[C@@H](CC(=O)[C@@H](NC(=O)c1cc(C)on1)C(C)C)Cc1ccc(F)cc1		culture		Rhinovirus	cytopathic effect / visual reading	Isolate 34	EC50	OHIO HELA-I	0.04 µg/mL
OCC1CCCN1c1nccnc1-c1cc2ccccc2o1	UL97 kinase	target	1 µM	Cytomegalovirus			inhibition		<50%
O=C(O)c1cc2nc(-c3ccccc3OCc3ccccc3)cc(-c3cccc(Cl)c3)n2n1	RNA-dependent RNA polymerase	target		Hepatitis C virus			IC50		>10 µM
Cn1ncc2cc(NC(=O)NCCc3ccc4c(n3)NCCC4)ccc21		toxicity					CC50	PBMC	0.7 µM
O=C(O)c1cc2nc(-c3ccc(C(F)(F)F)cc3)cc(-c3ccc(Oc4ccccc4)cc3)n2n1	RNA-dependent RNA polymerase	target		Hepatitis C virus			IC50		1–10 µM
O=S(=O)(O)c1ccc2ccc(S(=O)(=O)O)cc2c1		culture	5 µg/mL	Adenovirus	cytopathic effect	TYPE 3	inhibition	Human embryonic lung cells	10%
C=CCc1ccc(OC)c(OC)c1		culture		Candida tropicalis	turbidity	2804	MIC90		345 µg/mL
CCO/N=C/c1ccc(OCCC2CCN(c3ccc(Cl)nn3)CC2)cc1		culture		Rhinovirus	neutral red	SF-1662 (ICAM-1 receptor group 92)	EC50	KB	0.002 µM

Again, the opening 7 rows:

structure | protein | test | dose | organism | read by | strain or isolate | measure | cell line | result
CCOC(=O)c1c(C)nc(OCCCNc2ccnc3cc(Cl)ccc23)nc1-c1ccccc1 |  | culture |  | Cryptococcus gattii |  | 1913 ER | MIC99 |  | 8 µg/mL
Clc1cccc(-c2cncc(N3CCN(c4ccncc4)CC3)n2)c1 | UL97 kinase | target |  | Cytomegalovirus |  |  | IC50 |  | <1 µM
C=CCCC(=O)NC[C@H](O)c1ccc2c(c1)OCO2 |  | toxicity |  |  |  |  | CC50 | HEK 293 | <7.5 µM
CC(C)c1ccc(NC(=O)N(C)CCc2ccc3c(n2)NCCC3)cc1 |  | toxicity |  |  |  |  | CC50 | PBMC | 50 µM
CCCNCc1ccc(OCC(=O)OCC)cc1 |  | toxicity |  |  |  |  | CC50 | RAJI | >20 µM
Oc1ccccc1N=Cc1ccccc1 |  | culture |  | Cryptococcus gattii |  | L24/01 | MIC99 |  | 5.7 µg/mL
COc1ccc(CCNC(=O)NCCc2ccc3c(n2)NCCC3)cc1 |  | toxicity |  |  |  |  | CC50 | PBMC | 50 µM